# Source: patent US20250268857A1 (priority 2020, published 2025)
# Test system: methicillin-resistant Staphylococcus aureus (IID1677)
# Settings: 7,500 ppm agent diluted as appropriate
substance,measurement,value
zinc gluconate,Minimum Inhibitory Concentration,200 ppm
